Data on one molecule can be found in PubChem BioAssay AID212 (DTP/NCI, 2004).

The experiment has as its system BDF1 mice, colon carcinoma 38 sc, T/C %. The experiment can be described thus: NCI In Vivo Anticancer Drug Screen. Data for tumor model Colon Carcinoma 38 (subcutaneous) in B6D2F1 (BDF1) mice. As to conditions: endpoint: median tumor weight (est.), schedule: Q07DX002 (ip), vehicle: saline, higher = larger tumour. The method, then:
The antitumor activity of compounds was measured in mice bearing transplantable tumors. Survival or tumor size were measured and the results are expressed as the measurement made in the treated group (T) divided by the measurement made in the vehicle treated control group (C). The tumor model used in this assay is Colon Carcinoma 38 (subcutaneous) in B6D2F1 (BDF1) mice

Each structure is given as a SMILES string. Results filed as inconclusive are left out.

For the molecule `O=P1(N(CCCl)CCCl)NC(SCCS(=O)(=O)O)CCO1` (stereo not drawn), the T/C is 98 % of control (dose: 50.0 mg/kg/injection), 51 % of control (dose: 100.0 mg/kg/injection) and 16 % of control (dose: 200.0 mg/kg/injection).
